Compound potency records, mixed from different reports. Data source: NIAID ChemDB in PubChem.

All rows: tests in culture; organism: HIV-1; read by: β-galactosidase; read-out: EC50

Blank or dashed fields: not listed here.

SMILES,mutations,conditions,strain,cell line,value
CC[C@@H](C)[C@H](C(=O)O)N1C[C@H](CN2CCC(c3cc(Cc4cccc(CN)c4)nn3CC)CC2)[C@@H](c2cccc(F)c2)C1,-,50% human serum,BaL,HeLa,<0.033 µM
O=C(O)/C=C/c1ccc[c]([Sb](=[O])([OH])[OH])c1,-,-,92BR019 R5 clinical isolate,MAGI,<10 µM
COc1cc(C(F)(F)F)cc(S(=O)(=O)c2cccc(N)c2C#N)c1,RT-P236L,-,-,HeLa + HELA CD4+,0.008 µM
Cc1cc(S(N)(=O)=O)ccc1NC(=O)COc1ccc(Cl)cc1C(=O)c1cc(Cl)cc(C#N)c1,RT-K103N V108I,-,NNRTI-resistant (RT K103N V108I),MAGI,0.00063 µM
CC[C@H](C)[C@H](C(=O)O)N1C[C@H](CN2CCC(c3cc(Cc4ccc(-c5ccccc5)cc4)nn3CC)CC2)[C@@H](c2cccc(F)c2)C1,-,50% human serum,BaL,HeLa,<0.033 µM
Cc1cc(Cl)cc(S(=O)(=O)c2cccc(N)c2C#N)c1,RT-K103N Y181C,-,-,HeLa + HELA CD4+,>50 µM
CSc1ccccc1NC(=O)CSc1nnnn1-c1ccccc1SC,WT,-,NL4-3,HeLa CD4,0.447 µM
O=c1[nH]cnc2c1ncn2[C@H]1CC[C@@H](CO)O1,-,-,HXB2 WT,MAGI (CCR5) + MAGI,3.8 µM
C[N+](C)(Cc1ccc(NC(=O)C2=Cc3cc(-c4ccc(C(F)(F)F)cc4)ccc3OCC2)cc1)C1CCOCC1,-,-,JR-FL,MAGI + MAGI-CCR5,0.0012 µM
CCn1nc(Cc2ccc(OC3CC3)cc2)cc1C1CCN(C[C@H]2CN([C@@H](C(=O)O)C(C)C)C[C@@H]2c2cccc(F)c2)CC1,-,50% human serum,BaL,HeLa,<0.3 µM
CC[C@]1(CO)O[C@@H](n2cc(C)c(=O)[nH]c2=O)C[C@@H]1O,-,-,HXB2,HeLa,>100 µM
N#CC1C=Cc2ccccc2C1C(=O)/C=C/c1ccccc1,41-215 (AZT-resistant),-,NL4.3-XCS,HeLa CD4,0.239 µM
C#C[C@@]1(CO)C=C[C@H](n2cc(C)c(=O)[nH]c2=O)O1,RT-M184V,-,NL4-3,MAGI (CCR5) + MAGI,0.79 µM
CCn1nc(Cc2ccc(OC(C)(C)C)cc2)cc1C1CCN(C[C@H]2CN([C@@H](C(=O)O)C(C)(C)C)C[C@@H]2c2cccc(F)c2)CC1,-,50% human serum,BaL,HeLa,<0.3 µM
C#C[C@]1(CO)O[C@@H](n2cc(C)c(=O)[nH]c2=O)C[C@@H]1O,RT-Y181C,-,-,HeLa,0.13 µM
Cc1ccc(-c2ccc3c(c2)C=C(C(=O)Nc2ccc(C[N+]4(C)CCCCC4)cc2)CC3)cc1,-,-,JR-FL,MAGI + MAGI-CCR5,0.28 µM
Nc1ccn([C@H]2C[C@H](O)[C@](CO)(CF)O2)c(=O)n1,RT-M41L T215Y,-,RT-M41L/T215Y,HeLa,0.0035 µM
Cc1cc(O)cc(S(=O)(=O)c2cccc(N)c2C#N)c1,RT-K103N,-,-,HeLa + HELA CD4+,10.5 µM
Cc1nc2ccccc2n1S(=O)(=O)c1cc(Br)ccc1Br,WT,-,NL4-3,HeLa CD4,0.8 µM
CCOc1ccc(-c2ccc3c(c2)C=C(C(=O)Nc2ccc(C[N+](C)(C)C4CCOCC4)cc2)CCO3)cc1,-,-,JR-FL,MAGI + MAGI-CCR5,0.0018 µM
C=C[C@]1(CO)O[C@@H](n2cc(C)c(=O)[nH]c2=O)C[C@@H]1O,RT-M184V,-,-,HeLa,>100 µM
Cc1cc(Br)cc(S(=O)(=O)c2cccc(N)c2C#N)c1,RT-V108I,-,-,HeLa + HELA CD4+,0.017 µM
CCn1nc(Cc2ccc(Oc3ccccc3)cc2)cc1C1CCN(C[C@H]2CN([C@@H](C(=O)O)C(C)(C)C)C[C@@H]2c2cccc(F)c2)CC1,-,-,BaL,HeLa,<0.0037 µM
Cc1ccc(-c2ccc3c(c2)C=C(C(=O)Nc2ccc(C[N+](C)(C)CCCO)cc2)CCO3)cc1,-,-,JR-FL,MAGI + MAGI-CCR5,0.014 µM
CCn1nc(Cc2ccc(OC3CC3)cc2)cc1C1CCN(C[C@H]2CN([C@@H](C(=O)O)C(C)(C)C)C[C@@H]2c2cccc(F)c2)CC1,-,50% human serum,BaL,HeLa,<0.033 µM
c1ccc(CNc2nc(-c3cccnc3)cs2)cc1,M184V (3TC-resistant),-,NL4.3-XCS,HeLa CD4,0.662 µM

A second listing of 4 rows from above:

SMILES | mutations | conditions | strain | cell line | value
Cc1ccc(-c2ccc3c(c2)C=C(C(=O)Nc2ccc(C[N+](C)(C)CCCO)cc2)CCO3)cc1 | - | - | JR-FL | MAGI + MAGI-CCR5 | 0.014 µM
Cc1cc(O)cc(S(=O)(=O)c2cccc(N)c2C#N)c1 | RT-K103N | - | - | HeLa + HELA CD4+ | 10.5 µM
N#CC1C=Cc2ccccc2C1C(=O)/C=C/c1ccccc1 | 41-215 (AZT-resistant) | - | NL4.3-XCS | HeLa CD4 | 0.239 µM
Cc1nc2ccccc2n1S(=O)(=O)c1cc(Br)ccc1Br | WT | - | NL4-3 | HeLa CD4 | 0.8 µM

Lines come from different laboratories, so protocols vary. ECn: concentration that inhibits the pathogen or its effect by n%.